# Results taken from paper PMC9852841, “Expanding the toolbox of metabolically stable lipid prodrug strategies” (Frontiers in Pharmacology, 2023).
# Test system: VSV pseudotype HIV-like viral particles
# Assay type: cell-based
row,SMILES,Therapeutic index
1,"CCCCCCCCOCCCCCOCCCCCOP(=O)(O)CO[C@H](C)Cn1cnc2c(N)ncnc21.N [Compound 11, Ammonium 5-(5-octoxypentoxy)pentoxy-[[(1R)-2-(6-aminopurin-9-yl)-1-methyl-ethoxy]methyl]phosphinate]",>25a
2,"CCCCCCCCCCCCCCCCCOCCOP(=O)(O)CO[C@H](C)Cn1cnc2c(N)ncnc21.N [Compound 18, Ammonium 2-heptadecoxyethoxy-[[(1R)-2-(6-aminopurin-9-yl)-1-methyl-ethoxy]methyl]phosphinate]","23,200"
3,"CCCCCCCCCCCCCCCOCCCCOP(=O)(O)CO[C@H](C)Cn1cnc2c(N)ncnc21.N [Compound 19, Ammonium 4-pentadecoxybutoxy-[[(1R)-2-(6-aminopurin-9-yl)-1-methyl-ethoxy]methyl]phosphinate]",">3,330"
4,"CCCCCCCCCCCCCCOCCCCCOP(=O)(O)CO[C@H](C)Cn1cnc2c(N)ncnc21.N [Compound 20, Ammonium [(1R)-2-(6-aminopurin-9-yl)-1-methyl-ethoxy]methyl-(5-tetradecoxypentoxy)phosphinate]",">1,920"
5,"CCCCCCCCCCCCCCCCCCOCCOP(=O)(O)CO[C@H](C)Cn1cnc2c(N)ncnc21.N [Compound 21, Ammonium 2-octadecoxyethoxy-[[(1R)-2-(6-aminopurin-9-yl)-1-methyl-ethoxy]methyl]phosphinate]","17,900"
6,"C[C@H](Cn1cnc2c(N)ncnc21)OCP(=O)(O)OCCOCCCCCCCCCCCCCC#CC(F)(F)F.N [Compound 32, Ammonium 2-((16,16,16-trifluorohexadec-14-yn-1-yl)oxy)ethyl (R)-(((1-(6-amino-9h-purin-9-yl)propan-2-yl)oxy)methyl)phosphonate]",">6,250"
7,"C[C@H](Cn1cnc2c(N)ncnc21)OCP(=O)(O)OCCOCCCCCCCCCCCCCCC#CC(F)(F)F.N [Compound 33, Ammonium 2-((17,17,17-trifluoroheptadec-15-yn-1-yl)oxy)ethyl (R)-(((1-(6-amino-9h-purin-9-yl)propan-2-yl)oxy)methyl)phosphonate]",">9,430"
8,"C[C@H](Cn1cnc2c(N)ncnc21)OCP(=O)(O)OCCOCCCCCCCCCCCCCCCC(F)(F)F.N [Compound 36, Ammonium 2-((16,16,16-trifluorohexadecyl)oxy)ethyl (R)-(((1-(6-amino-9H-purin-9-yl)propan-2-yl)oxy)methyl)phosphonate]",">11,400"
9,"C[C@H](Cn1cnc2c(N)ncnc21)OCP(=O)(O)OCCOCCCCCCCCCCCCCCCCC(F)(F)F.N [Compound 37, Ammonium 2-((17,17,17-trifluoroheptadecyl)oxy)ethyl (R)-(((1-(6-amino-9h-purin-9-yl)propan-2-yl)oxy)methyl)phosphonate]","6,750"
10,"C[C@H](Cn1cnc2c(N)ncnc21)OCP(=O)(O)OCCOCCCCCCCCCCCCc1ccc(S(F)(F)(F)(F)F)cc1.N [Compound 42, Ammonium [(1R)-2-(6-aminopurin-9-yl)-1-methyl-ethoxy]methyl-[2-[12-[4-(pentafluorosulfanyl)phenyl]dodecoxy]ethoxy]phosphinate]",">3,940"

# Some results come without the dose or concentration used. Which two values form the index is not stated here.
